Anti-infective test results gathered from many reports (values: NIAID ChemDB through PubChem).

All rows: cytotoxicity tests; cells: MRC-5; measure: CC50

Neighbouring rows are from separate reports.

SMILES,read by,result
CC(O)c1cn([C@@H]2O[C@H](CO)[C@@H](O)[C@@H]2O)c(=S)[nH]c1=O,,>213 µM
CCc1nc2ccc(OCCC3CCN(c4ccc(C)nn4)CC3)cc2o1,,>1 µg/mL
Cc1cn([C@H]2C[C@H](NC(N)=O)[C@@H](CO)O2)c(=O)[nH]c1=O,,>100 µM
CCc1cn([C@@H]2O[C@H](CO)[C@@H](O)[C@@H]2O)c(=S)[nH]c1=O,,>213 µM
Nc1nc2c(ccn2[C@@H]2C[C@H](CO)[C@@H](O)[C@H]2O)c(=O)[nH]1,,>100 µg/mL
CO/N=C/c1c(C)cc(OCCC2CCN(c3ccc(C)nn3)CC2)cc1C,neutral red,>0.1 µg/mL
Cc1cn([C@H]2C[C@H](NC#N)[C@@H](CO)O2)c(=O)[nH]c1=O,,>100 µM
O=C1C=CN(Cc2ccc(Cl)cc2)S(=O)(=O)N1Cc1ccc(Cl)cc1,,25.1 µM
CCc1cn([C@H]2C[C@H](O)[C@@H](CO)O2)c(=S)[nH]c1=O,,>277.6 µM
C[C@H]1[C@H](O)[C@@H](CO)O[C@H]1n1cc(I)c(N)nc1=O,,>100 µg/mL
COc1ccc(Cn2cc(C(N)=S)c3c(N)ncnc32)cc1,,80 µM
Nc1ccn(C[C@@H](CO)OCP(=O)(O)O)c(=O)n1,,1450 µM
C[C@H]1OC[C@@H](n2c(Br)nc3cc(Cl)c(Cl)cc32)[C@@H]1O,,100 µM
Cc1cn([C@H]2C[C@H](O)[C@@H](CO)O2)c(=S)[nH]c1=O,,>776 µM
C=CCO/N=C/c1cc(C)c(OCCCc2cc(C)no2)c(C)c1,visual reading,17 µg/mL
Nc1nc2c(ncn2COC2COP(=O)(O)OC2)c(=O)[nH]1,,120 µM
CC(=O)O[C@@H]1C2C(C)(C)C(=O)C=C[C@]2(C)C2CC[C@@]3(C)[C@H](c4ccoc4)OC(=O)[C@H]4O[C@]43C2[C@H]1OC(C)=O,resazurin,>185 µM
CC(C)Nc1nc2cc(Cl)c(Cl)cc2n1[C@@H]1CO[C@H](CO)[C@H]1O,,32 µM
CC#Cc1cn([C@@H]2O[C@H](COP(=O)(N[C@H](C(=O)OC)C(C)C)Oc3ccccc3)[C@@H](O)[C@@H]2O)c(=O)[nH]c1=O,,>500 µM
CCO/N=C/c1ccc(OCCC2CCN(c3cc(C)c(Cl)nn3)CC2)cc1,neutral red,>0.5 µg/mL
O=C1c2ccccc2N(Cc2ccc([N+](=O)[O-])cc2)S(=O)(=O)N1Cc1ccc([N+](=O)[O-])cc1,,>53 µM
Nc1nc2c(ncn2COC(CO)CO)c(=O)[nH]1,,110 µM
Nc1ccn(C[C@@H](CO)OCP(=O)(O)O)c(=O)n1,,19 µg/mL
Clc1ccc(-c2cc3ccccn3c2)c(Cl)c1,MTT,>500 µM
CCOC1=NS(=O)(=O)N(Cc2ccc(Cl)c(Cl)c2)c2ccccc21,,6.4 µM
C=Cc1cn([C@@H]2O[C@H](CO)[C@@H](O)[C@@H]2O)c(=S)[nH]c1=O,,>213 µM
CCO/N=C/c1ccc(OCCC2CCN(c3ccc(C)nn3)CC2)c(C)c1,neutral red,>0.1 µg/mL
CCCCc1ccc2cc(-c3ccccc3)cn2c1,MTT,>500 µM
Nc1nc2c(ncn2COC(CO)COP(=O)(O)O)c(=O)[nH]1,,>1000 µM
OC[C@H]1O[C@@H](n2c(Br)nc3cc(Cl)c(Cl)cc32)[C@H](O)[C@@H]1O,,100 µM
Nc1nc(=S)n([C@@H]2O[C@H](CO)[C@@H](O)[C@@H]2O)cc1F,,>361 µM
CCCCN1C(=O)c2ccccc2N(C(=O)c2ccc(Cl)cc2)S1(=O)=O,,56.7 µM
N#Cc1ccc(CN2c3ccccc3C(=O)N(Cc3ccccc3)S2(=O)=O)cc1,,>62 µM
Nc1nc2c(ncn2COC(CO)CO)c(=O)[nH]1,,>158 µM
CCOC1=NS(=O)(=O)N(Cc2ccc(Cl)cc2)c2ccccc21,,7.1 µM
FC(F)(F)c1cc(Cl)c2cc(-c3ccccc3)cn2c1,MTT,>500 µM
CCCCCCCCCCc1nccn(C(CO)OC(CO)CO)c1=O,MTT,93 µM
CC#Cc1cn([C@@H]2O[C@H](COP(=O)(O)Oc3ccc(OC)cc3)[C@@H](O)[C@@H]2O)c(=O)[nH]c1=O,,>500 µM
C/C=C1/CN2CC[C@@H]1[C@](C)(O)c1[nH]c3ccccc3c1C2,MTT,33.3 µg/mL
O=c1[nH]c(=S)n([C@H]2C[C@H](O)[C@@H](CO)O2)cc1Cl,,360 µM
Nc1nc(=S)n([C@@H]2O[C@H](CO)[C@@H](O)[C@@H]2O)cc1/C=C/c1ccccc1,,>258.7 µM
Nc1ncnc2c1ncn2OCC(CO)CCP(=O)(O)O,,>100 µg/mL
CCCCCCCCCCCCCCCCOCCCOP(=O)(O)OCC(CO)CCn1cnc2c(=O)[nH]c(N)nc21,,>158 µM
CC(C)Nc1nc2cc(Cl)c(Cl)cc2n1[C@@H]1CO[C@H](CO)C1,,65 µM
CCCCCCCCCCCCCCCC(=O)Nc1cc(S(=O)(=O)O)cc2cc(S(=O)(=O)O)cc(O)c12,,98 µM
CC#Cc1cn([C@@H]2O[C@H](COP(=O)(O)Oc3ccccc3Cl)[C@@H](O)[C@@H]2O)c(=O)[nH]c1=O,,305 µM
C[C@H]1[C@H](O)[C@@H](CO)O[C@H]1n1cc(Br)c(=O)[nH]c1=O,,>100 µg/mL
C=Cc1cn([C@@H]2O[C@H](CO)[C@@H](O)[C@@H]2O)c(=S)nc1N,,>266.3 µM
O=C1c2sc3ccccc3c2N(Cc2ccc(Cl)cc2)S(=O)(=O)N1Cc1ccc(Cl)cc1,,49.6 µM
Cc1cn([C@H]2C[C@H](O)[C@@H](CO)O2)c(=S)nc1N,,>277.4 µM
Cc1ccc(N2CCC(CCOc3ccc4nc(C)oc4c3)CC2)nn1,,>1 µg/mL
Nc1nc2c(ncn2CCC(CO)CO)c(=O)[nH]1,,160 µg/mL
O=C1c2sc3ccccc3c2N(Cc2ccc(Cl)cc2)S(=O)(=O)N1Cc1ccccc1,,53.3 µM
Nc1ccn(C[C@@H](CO)OCP(=O)(O)O)c(=O)n1,,>100 µg/mL
Nc1nc(=S)n([C@@H]2O[C@H](CO)[C@@H](O)[C@@H]2O)cc1/C=C/Br,,>213 µM
COc1ccc2c(c1)[C@@H]1C[C@]1(C(=O)N1[C@@H]3CC[C@H]1CN(C)C3)Cn1c-2c(C2CCCCC2)c2ccc(C(=O)NS(=O)(=O)N(C)C)cc21,resazurin,16 µM
CC#Cc1cn([C@@H]2O[C@H](CO)[C@@H](O)[C@@H]2O)c(=O)[nH]c1=O,,>500 µM
CC#Cc1cn([C@@H]2O[C@H](COP(=O)(Oc3ccccc3)Oc3ccc([N+](=O)[O-])cc3)[C@@H](O)[C@@H]2O)c(=O)[nH]c1=O,,110 µM
CC(C)NCCNc1ccnc2cc(Cl)ccc12,fluorescence,0.064 µM
COc1ccc(-c2cc3ccccn3c2)cc1OC,MTT,~400 µM
Cc1ccc(CN2c3ccccc3C(=O)N(Cc3ccccc3)S2(=O)=O)cc1,,>63 µM
COCCOCn1cc(C(N)=S)c2c(N)ncnc21,,>100 µM
[C-]#[N+][C@H]1C[C@H](n2cc(C)c(=O)[nH]c2=O)O[C@@H]1CO,,20 µM
O=C1NCc2ccccc2OCC/C=C/c2cncc3ccc1nc23,neutral red,1.8 µg/mL
CC#Cc1cn([C@@H]2O[C@H](COP(=O)(N[C@@H](C)C(=O)OC)Oc3ccccc3)[C@@H](O)[C@@H]2O)c(=O)[nH]c1=O,,>500 µM
Nc1nc(=O)n([C@@H]2O[C@H](CO)[C@@H](O)[C@@H]2F)cc1I,,9.1 µg/mL
COc1ccc(CN2c3ccccc3C(=O)N(Cc3ccccc3)S2(=O)=O)cc1,,>61 µM
C/C=C(\COC(=O)C(C)(C)C)C(CCN=[N+]=[N-])[C@@](C)(O)c1cc2ccccc2[nH]1,MTT,54 µg/mL
CC#Cc1cn([C@@H]2O[C@H](COP(=O)(O)Oc3ccc(F)cc3)[C@@H](O)[C@@H]2O)c(=O)[nH]c1=O,,>500 µM
Nc1nc(=S)n([C@@H]2O[C@H](CO)[C@@H](O)[C@@H]2O)cc1Cl,,>341 µM
Cc1ccc(C(=O)Nc2ccc(S(=O)(=O)O)c3cc(S(=O)(=O)O)cc(S(=O)(=O)O)c23)cc1NC(=O)c1cccc(NC(=O)Nc2cccc(C(=O)Nc3cc(C(=O)Nc4ccc(S(=O)(=O)O)c5cc(S(=O)(=O)O)cc(S(=O)(=O)O)c45)ccc3C)c2)c1,,>500 µM
O=c1[nH]c(=S)n([C@H]2C[C@H](O)[C@@H](CO)O2)cc1Br,,311 µM
O=C(CCCCCCCCCCC(=O)Nc1cc(S(=O)(=O)O)cc2cc(S(=O)(=O)O)cc(O)c12)Nc1cc(S(=O)(=O)O)cc2cc(S(=O)(=O)O)cc(O)c12,,>500 µM
CC(C)CN1C(=O)c2ccccc2N(Cc2ccc(Cl)c(Cl)c2)S1(=O)=O,,60.4 µM

Repeating the first 6 entries:

CC(O)c1cn([C@@H]2O[C@H](CO)[C@@H](O)[C@@H]2O)c(=S)[nH]c1=O ; result: >213 µM
CCc1nc2ccc(OCCC3CCN(c4ccc(C)nn4)CC3)cc2o1 ; result: >1 µg/mL
Cc1cn([C@H]2C[C@H](NC(N)=O)[C@@H](CO)O2)c(=O)[nH]c1=O ; result: >100 µM
CCc1cn([C@@H]2O[C@H](CO)[C@@H](O)[C@@H]2O)c(=S)[nH]c1=O ; result: >213 µM
Nc1nc2c(ccn2[C@@H]2C[C@H](CO)[C@@H](O)[C@H]2O)c(=O)[nH]1 ; result: >100 µg/mL
CO/N=C/c1c(C)cc(OCCC2CCN(c3ccc(C)nn3)CC2)cc1C ; read by: neutral red ; result: >0.1 µg/mL

CCn is the concentration with n% toxicity to the cells. An empty or dashed field is not shown.